Results reported in US12692471B2, “High aspect ratio devices and methods for vitrification of biological samples by rapid cooling” (The General Hospital Corporation, priority 2020, dated 2026).

Test: Validation of vitrification of Water-DMSO mixtures in cassettes by imaging
Type: physicochemical

C[S+](C)[O-] [DMSO, dimethyl sulfoxide]
DMSO concentration at which vitrification is indicated (ice crystallization during gradual warming in air) (Water-DMSO mixtures plunged in liquid nitrogen in cassettes): > 25 % v/v | minimum DMSO necessary to form extracellular glass (vitrification cassettes): ≥ 30%
